Legend:
[1] = molecular target: T1, RAC1^WT (Ras-related C3 botulinum toxin substrate 1, wild type), purified (human, UniProt P63000 1-192); assay: mGppNHp-bound RAC1
[2] = molecular target: T1, RAC1^WT (Ras-related C3 botulinum toxin …); assay: FP; mGppNHp-bound RAC1
[3] = molecular target: T1, RAC1^WT (Ras-related C3 botulinum toxin …); assay: mGppNHp-bound RAC1; remark: listed apart in the source
[4] = molecular target: T1, RAC1^WT (Ras-related C3 botulinum toxin …); assay: mdGDP-bound RAC1

| Binder | Kd [1] | Kd [2] | koff [3] | Kd [4] |
| --- | --- | --- | --- | --- |
| His-IQGAP1 C794 (C-terminal 794 amino acids of IQ motif-containing GTPase-activating protein 1) (domain or fragment) PPMVVVRKFVHLLDQSDQDFQEELDLMKMREEVITLIRSNQQLENDLNLMDIKIGLLVKNKITLQDVVSHSKKLTKKNKEQLSDMMMINKQKGGLKALSKEKREKLEAYQHLFYLLQTNPTYLAKLIFQMPQNKSTKFMDSVIFTLYNYASNQREEYLLLRLFKTALQEEIKSKVDQIQEIVTGNPTVIKMVVSFNRGARGQNALRQILAPVVKEIMDDKSLNIKTDPVDIYKSWVNQMESQTGEASKLPYDVTPEQALAHEEVKTRLDSSIRNMRAVTDKFLSAIVSSVDKIPYGMRFIAKVLKDSLHEKFPDAGEDELLKIIGNLLYYRYMNPAIVAPDAFDIIDLSAGGQLTTDQRRNLGSIAKMLQHAASNKMFLGDNAHLSIINEYLSQSYQKFRRFFQTACDVPELQDKFNVDEYSDLVTLTKPVIYISIGEIINTHTLLLDHQDAIAPEHNDPIHELLDDLGEVPTIESLIGESSGNLNDPNKEALAKTEVSLTLTNKFDVPGDENAEMDARTILLNTKRLIVDVIRFQPGETLTEILETPATSEQEAEHQRAMQRRAIRDAKTPDKMKKSKSVKEDSNLTLQEKKEKIQTGLKKLTELGTVDPKNKYQELINDIARDIRNQRRYRQRRKAELVKLQQTYAALNSKATFYGEQVDYYKSYIKTCLDNLASKGKVSKKPREMKGKKSKKISLKYTAARLHEKGVLLEIEDLQVNQFKNVIFEISPTEEVGDFEVKAKFMGVQMETFMLHYQDLLQLQYEGVAVMKLFDRAKVNVNLLIFLLNKKFYGK | 1400 nM | – | – | – |
| GST-PAK1 RBD (RAC1 binding domain of p21-activated kinase 1) (domain or fragment) SILPGDKTNKKKEKERPEISLPSDFEHTIHVGFDAVTGEFTGMPEQWARLLQTSNITKSEQKKNPQAVLDVLEFYNSKKTSNSQK | 850 nM | 1160 nM | 0.146 s⁻¹ | – |
| GST-GDI1 (guanosine dissociation inhibitor 1, full-length) (natural protein) MAEQEPTAEQLAQIAAENEEDEHSVNYKPPAQKSIQEIQELDKDDESLRKYKEALLGRVAVSADPNVPNVVVTGLTLVCSSAPGPLELDLTGDLESFKKQSFVLKEGVEYRIKISFRVNREIVSGMKYIQHTYRKGVKIDKTDYMVGSYGPRAEEYEFLTPVEEAPKGMLARGSYSIKSRFTDDDKTDHLSWEWNLTIKKDWKD | – | – | – | 470 nM |

From article PMC12702776 (2025)
